Experiments:
[1] = target: LCRK3 (cdc2-related protein kinase 3) (Leishmania mexicana, UniProt O15851); assay: luminescent kinase assay (Promega); assay type: biochemical; details: histone H1 substrate, ATP
[2] = target: LGSK-3 (leishmanial Glycogen Synthase Kinase-3 short) (Leishmania donovani, UniProt A6N857); assay: luminescent kinase assay (Promega); assay type: biochemical; details: GS-1 peptide substrate, ATP

Protein sequences, listed by entry. Tags and fused reporters are not part of them. Residues count along the entry.
UniProt O15851, 1-311: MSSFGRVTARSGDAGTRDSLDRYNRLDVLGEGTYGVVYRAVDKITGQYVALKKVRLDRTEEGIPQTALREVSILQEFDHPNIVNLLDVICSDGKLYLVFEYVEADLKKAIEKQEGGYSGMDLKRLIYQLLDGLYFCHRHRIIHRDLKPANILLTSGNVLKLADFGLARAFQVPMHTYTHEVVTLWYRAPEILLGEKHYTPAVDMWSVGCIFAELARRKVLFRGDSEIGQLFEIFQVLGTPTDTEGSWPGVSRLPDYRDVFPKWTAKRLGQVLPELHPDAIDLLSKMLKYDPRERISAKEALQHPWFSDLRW
UniProt A6N857, 1-355: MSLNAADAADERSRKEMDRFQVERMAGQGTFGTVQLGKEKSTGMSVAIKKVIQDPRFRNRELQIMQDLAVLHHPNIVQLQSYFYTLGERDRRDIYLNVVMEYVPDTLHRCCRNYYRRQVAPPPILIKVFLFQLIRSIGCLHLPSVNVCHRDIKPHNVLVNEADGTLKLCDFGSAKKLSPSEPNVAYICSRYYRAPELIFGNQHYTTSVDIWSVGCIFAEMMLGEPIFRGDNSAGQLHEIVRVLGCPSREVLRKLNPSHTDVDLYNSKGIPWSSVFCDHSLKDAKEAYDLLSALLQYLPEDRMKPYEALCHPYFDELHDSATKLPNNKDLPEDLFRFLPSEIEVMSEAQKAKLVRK

With `O=C1Nc2c(cccc2C(F)(F)F)C1=C1Nc2ccccc2C1=NO` the IC50 [1] was greater than 3.33 µM and the IC50 [2] was greater than 3.33 µM.

— article PMC4039064, “An inhibitor-driven study for enhancing the selectivity of indirubin derivatives towards leishmanial Glycogen Synthase Kinase-3 over leishmanial cdc2-related protein kinase 3” (Parasites & Vectors, 2014)
